Measurements reported in ChEMBL document CHEMBL3244068 (J Med Chem, 1978).

Species: Rattus norvegicus
Assay: Toxicity in rat allografted with rat Walker 256 cells
Format: organism-based

Row | Structure (SMILES) | log1/CLD50
1 | CC(=O)Sc1ccc(N(CCBr)CCBr)cc1 | 3.79
2 | O=C(O)c1ccc(N(CCI)CCI)cc1 | 3.3
